# Laboratory results: US10039758B2 (priority 2014, dated 2018)
# Tested on: PA
# Assay: Biochemical assay of PA binding and internalization (immunoblot)
# Format: cell-based, mouse
# Conditions: RAW264.7, 1 ug/mL PA at 37° C. 1 hour, compared to PA only (FIG. 15)
smiles,measurement,value
"CCN(CC)Cc1cc(Nc2ccnc3cc(Cl)ccc23)ccc1O [AQ, Amodiaquine]",abundance of SDS-resistant PA-oligomers,"higher, rather than lower, abundance of SDS-resistant PA-oligomers"
